A mixed list of measured activities; the numbers were collected in NIAID ChemDB.

Shared fields: growth or infection tests; organism: Herpes simplex virus 2; read by: cytopathic effect; read-out: EC50

Lines come from different laboratories, so protocols vary.

structure,strain,cell line,result
COC(C)c1cn([C@H]2C[C@H](O)[C@@H](CO)O2)c(=O)[nH]c1=O,MS,HFF,1.5 µM
c1ccc(-c2nn3c(-c4cn(-c5ccccc5)nc4-c4ccccc4)nnc3s2)cc1,G,HEL,>3.2 µg/mL
OC[C@H]1O[C@@H](c2cc(/C=C/Br)c(F)cc2F)C[C@@H]1O,196,E6SM,>400 µg/mL
Nc1nc2c(ncn2COCCO)c(=O)[nH]1,V69730 (acyclovir-susceptible),HFF,0.5 µg/mL
Nc1nc2c(nc(Cl)n2COCCO)c(=O)[nH]1,,PRK,>400 µg/mL
Nc1ncnc2c1ncn2[C@@H]1C[C@H](CO)[C@@H](O)[C@H]1O,,PRK,2 µg/mL
Cc1cn(COCCO)c(=O)[nH]c1=O,,PRK,>400 µg/mL
CCC(Sc1ncnc2c1cnn2COCCO)C(N)=O,G,E6SM,>400 µg/mL
O=c1ccn(COCCO)c(=O)[nH]1,,PRK,>400 µg/mL
CC=NC(=N)c1nc(-c2ccc(OC)cc2)n(COCCO)n1,G,E6SM,>200 µg/mL
CC(C)CS[C@@H]1C[C@H](n2cnc3c(N)ncnc32)[C@@H](O)[C@H]1O,G,E6SM,>80 µg/mL
COC(c1cn([C@H]2C[C@H](O)[C@@H](CO)O2)c(=O)[nH]c1=O)C(I)I,MS,HFF,>93 µM
O=c1[nH]c(=O)n([C@H]2C[C@H](O)[C@@H](CO)O2)cc1/C=C/Br,LYONS,PRK,40 µg/mL
O=c1[nH]c(=O)n(COCCO)cc1F,,PRK,>400 µg/mL
Nc1[nH]c(=O)ncc1F,MS,VERO,>5000 µM
Nc1ncnc2c1ncn2N1C[C@H](CO)[C@H]1CO,,VERO,34.9 µg/mL
O=c1[nH]c(=O)n([C@H]2C[C@H](O)[C@@H](CO)O2)cc1/C=C\Cl,G,PRK,20 µg/mL
O=C(C1CCCCC1)N(O)c1ccc(Cl)cc1,G,E6SM,>80 µg/mL
CC=NC(=N)c1nc(-c2ccc(C)cc2)n(C/C=C/c2ccccc2)n1,G,E6SM,>4 µg/mL
CCc1cn([C@H]2C[C@H](O)[C@@H](CO)O2)c(=O)[nH]c1=O,G,PRK,0.7 µg/mL
COC(=O)C(Cc1c[nH]c2ccccc12)NP(=O)(O)OCC1C/C1=C/n1cnc2c(N)ncnc21,,HFF,>184 µM
CSCc1cn([C@H]2C[C@H](O)[C@@H](CO)O2)c(=O)[nH]c1=O,LYONS G 196,PRK,4 µg/mL
CC=NC(=N)c1nc(-c2ccccc2)n(Cc2ccccc2)n1,G,E6SM,>4 µg/mL
COC(=O)[C@H]1NC(=O)[C@H]2NC(=O)[C@H](NC(=O)[C@@H]3NC(=O)[C@H]4NC(=O)[C@H](NC(=O)[C@H](N)c5ccc(O)c(c5)Oc5cc4cc(O)c5C)[C@H](O)c4ccc(cc4)Oc4cc3cc(c4O)Oc3ccc(cc3)[C@H]2O[C@@H]2C[C@@H](N)[C@@H](O)[C@H](C)O2)c2ccc(O)c(c2)-c2c(O)cc(O)cc21,G,HEL,>200 µM
N#CC1=CSc2nnc(-c3cn(-c4ccccc4)nc3-c3ccccc3)n2N=C1N,G,HEL,>80 µg/mL
COC(c1cn([C@H]2C[C@H](O)[C@@H](CO)O2)c(=O)[nH]c1=O)C(Cl)Cl,MS,HFF,>141 µM
CC(Sc1ncnc2c1cnn2COCCO)C(N)=O,G,E6SM,>400 µg/mL
NC1=CC(c2ccccc2)=Nn2c(nnc2-c2cn(-c3ccccc3)nc2-c2ccccc2)S1,G,HEL,>80 µg/mL
O=c1[nH]c(=O)n([C@H]2C[C@H](O)[C@@H](CO)O2)cc1C(O)C(Br)Br,MS,HFF,6.3 µM
Cc1cn([C@H]2CC[C@@H](OCC(=O)O)C2)c(=O)[nH]c1=O,G,HEL,>250 µM
O=c1[nH]c(=O)n([C@H]2C[C@H](O)[C@@H](CO)O2)cc1C(O)C(Cl)Cl,MS,HFF,>73.5 µM
CC(N=[N+]=[N-])c1cn([C@H]2C[C@H](O)[C@@H](CO)O2)c(=O)[nH]c1=O,MS,HFF,>100 µM
COc1nc(=O)n([C@H]2C[C@H](O)[C@@H](CO)O2)cc1/C=C/Cl,G,PRK,20 µg/mL
CC1=Nn2c(nnc2-c2cn(-c3ccccc3)nc2-c2ccccc2)SC1,G,HEL,>16 µg/mL
[N-]=[N+]=NC(CBr)c1cc([C@H]2C[C@H](O)[C@@H](CO)O2)c(F)cc1F,G,E6SM,>400 µg/mL
O=C(O)C(O[C@@H]1CC[C@H](n2cc(F)c(=O)[nH]c2=O)C1)P(=O)(O)O,G,HEL,>250 µM
OC[C@H]1O[C@@H](c2cc(C#CBr)c(F)cc2F)C[C@@H]1O,LYONS,E6SM,>400 µg/mL
O=C(CCC1CCCCC1)N(O)c1ccc(Cl)cc1,G,E6SM,>16 µg/mL
CC=NC(=N)c1nc(-c2cccc(C)c2)n(Cc2ccccc2)n1,G,E6SM,>4 µg/mL
COC(c1cn([C@H]2C[C@H](O)[C@@H](CO)O2)c(=O)[nH]c1=O)C(Br)Br,MS,HFF,>56.3 µM
CC(=O)c1c(O)c2c(c(C(=O)CC(C)C)c1O)OC(C(C)(C)O)C2,,VERO,10.4 µM
Nc1nc(=O)n([C@@H]2O[C@H](COP(=O)([O-])[O-])[C@@H](O)[C@H]2O)cc1F,MS,VERO,<0.5 µM
CCC(Sc1ncnc2c1cnn2CCCCO)C(N)=O,G,E6SM,>400 µg/mL
CC(=O)OC(C)[C@H]1CCC2C3CC4[C@H](C)C[C@@]5(CC[C@H](OC(C)=O)C[C@]45Cl)C3CC[C@@]21C,G,BHK-21,68.9 µM

An empty or dashed field is not shown. ECn is the concentration giving n% inhibition of infection, replication or growth.